Laboratory results taken from paper PMC10269446.

Target: T1, rOmpR (OmpR-6xHis) (UniProt A6TF28)
T1 sequence (looked up): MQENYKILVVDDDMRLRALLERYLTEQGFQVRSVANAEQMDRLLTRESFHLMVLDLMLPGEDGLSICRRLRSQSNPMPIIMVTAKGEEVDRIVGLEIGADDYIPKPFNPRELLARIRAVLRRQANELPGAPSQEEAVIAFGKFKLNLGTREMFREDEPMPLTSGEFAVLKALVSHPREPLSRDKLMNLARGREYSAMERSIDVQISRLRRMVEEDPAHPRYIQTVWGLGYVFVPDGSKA
Experiment: EMSA
Details: recombinant protein, residues 1-239, protein details: C-terminal His6 (pET28a), probe letters rebuilt from the primers and the genome

“CAATGATGAGCAGCATAGTGATGTTAAATTTTTATTATAAATGTCAATAAAAGGTTTTTATTGTATGTGAGGTTGTTTTAGATAATGTCCTCACTTTTTATCTTGAATATCAAAAGCATGAAAAATAGTGTTTTATGTCCTTGATTCATTAAAGGGCGCTTGAAATGTTTATTATGTGATCTGATGCACGCTTTAATTGCCGTGTTTCCTCGTTATTTGCAGTTTTGTATGACCGCTCACAGAACGCTGAAATGCACGGAAAGTTGTCCGTTGGAAAATAATTAAACATTTATTCACTATTTTGCTACTTATTGTTTGAAATCACGGGGCGTCACCGTATAATTTGTCCGCTTTTTGATGCTTGACTCTTCGTCTTAAAGGACGTTTTATACGACACGCGACATACCTCAAAGGGAGCAGG (double strand) [Patp1]”: binds (phosphorylated with 25 mM acetyl phosphate, 1 mM MgCl2, 0-20 uM rOmpR-P); binds (unphosphorylated (no acetyl phosphate), 10 uM rOmpR).

Protein sequences can lack the tags named with them.
